Pooled drug test results. Numbers come from NIAID ChemDB, via PubChem.

All rows: whole-cell or culture tests; agent: Vesicular stomatitis virus; read-out: EC50

Blank or dashed fields: not listed here.

smiles,strain,cell line,method,value
Nc1nc2c(nc(N)n2COCCO)c(=O)[nH]1,,PRK,cytopathic effect,>400 µg/mL
CCc1cn([C@@H]2O[C@H](COP(=O)(O)O)[C@@H](O)[C@H]2O)c(=O)nc1N,,,,>400 µg/mL
CC(C)(C)c1cn([C@H]2C[C@H](O)[C@@H](CO)O2)c(=O)[nH]c1=O,,E6SM,cytopathic effect,>1500 µM
Nc1ccn([C@@H]2O[C@H](CO)[C@@H](O)[C@H]2N)c(=O)n1,,PRK,cytopathic effect,150 µg/mL
Nc1ccn([C@@H]2OC[C@H](CO)[C@H]2O)c(=O)n1,,E6SM,cytopathic effect,>400 µg/mL
O=c1c2ncn(COCCO)c2[nH]c2ncc(CO)n12,,,cytopathic effect,>3.2 µg/mL
CCCc1cn([C@@H]2O[C@H](COP(=O)(O)O)[C@@H](O)[C@H]2O)c(=O)nc1N,,,,>400 µg/mL
O=c1[nH]c(=O)n([C@H]2C[C@H](O)[C@@H](CO)O2)cc1C1CC1,,E6SM,cytopathic effect,>1500 µM
COc1ccc(-c2cn3c(=O)c4ncn(COC(CO)CO)c4nc3[nH]2)cc1,,,cytopathic effect,>80 µg/mL
COC(=O)[C@H]1[C@@H]2C[C@@H](O[C@@H]3O[C@H](C)[C@@H](O)[C@H](N)[C@@H]3O)/C=C/C=C/C=C/C=C/C=C/C=C/C=C/[C@H](C)[C@@H](O)[C@H](C)[C@H](C)OC(=O)C[C@H](O)C[C@H](O)[C@@H](O)CC[C@H](O)C[C@H](O)C[C@](O)(C[C@@H]1O)O2,,HFF,plaque count,1.3 µg/mL
CCCc1cn([C@H]2C[C@H](O)[C@@H](CO)O2)c(=O)[nH]c1=O,,E6SM,cytopathic effect,>1500 µM
Nc1nc(Cl)c2ncn(COCCO)c2n1,,PRK,cytopathic effect,>400 µg/mL
NC(=O)c1cncc([C@@H]2O[C@H](CO)[C@@H](O)[C@@H]2O)c1,,E6SM,cytopathic effect,≥100 µg/mL
CCOc1cc(O)c(C(=O)/C=C/c2ccc(OC)cc2)c(OC)c1,,HeLa,cytopathic effect,>3 µg/mL
N#Cc1cncc([C@H]2O[C@H](CO)[C@@H](O)[C@@H]2O)c1,,E6SM,cytopathic effect,≥100 µg/mL
Nc1ncnc2c1ncn2C[C@H](O)CO,,HeLa,cytopathic effect,70 µg/mL
CCCCCc1cn([C@@H]2O[C@H](COP(=O)(O)O)[C@@H](O)[C@H]2O)c(=O)nc1N,,,,>400 µg/mL
N[C@@H]1[C@H](O)[C@@H](CO)O[C@H]1n1ccc(=O)[nH]c1=O,,PRK,cytopathic effect,>200 µg/mL
OC[C@H]1O[C@@H](c2cc(C#CI)c(F)cc2F)C[C@@H]1O,,E6SM,cytopathic effect,>400 µg/mL
Cc1nc2c(=O)[nH]c(N)nc2n1COCCO,,PRK,cytopathic effect,>400 µg/mL
CO[C@@H]1[C@H](O)[C@@H](CO)O[C@H]1n1cnc2c(N)ncnc21,,PRK,cytopathic effect,>100 µg/mL
Nc1nc2c(ncn2[C@H]2OC[C@@H](CO)C2O)c(=O)[nH]1,,E6SM,cytopathic effect,>400 µg/mL
Nc1nc(=O)ccn1COCCO,,PRK,cytopathic effect,>400 µg/mL
COc1cc(Cc2cnc(-n3c(-c4ccccc4)nc4ccc(Br)cc4c3=O)nc2N)cc(OC)c1OC,,HeLa,cytopathic effect,>16 µg/mL
N#Cc1cncc([C@@H]2O[C@H](CO)[C@H](O)[C@@H]2O)c1,,E6SM,cytopathic effect,≥100 µg/mL
COc1ccc(-c2[nH]c3nc4c(ncn4COCCO)c(=O)n3c2-c2ccc(C(c3ccccc3)c3ccccc3)cc2)cc1,,,cytopathic effect,>16 µg/mL
NC(=S)c1cncc([C@H]2O[C@H](CO)[C@@H](O)[C@@H]2O)c1,,E6SM,cytopathic effect,≥100 µg/mL
Nc1ncnc2c1ncn2C[C@@H](CO)OCP(=O)(O)O,,ESM,cytopathic effect,>400 µg/mL
CC(C)(C)c1cn([C@H]2C[C@H](O)[C@@H](CO)S2)c(=O)[nH]c1=O,,E6SM,cytopathic effect,>1500 µM
Cn1cc(CCCCOc2ccc(C3=NCCO3)cc2)cc1C=O,,VERO,plaque count,>280 µM
OC[C@H]1O[C@@H](c2cc(/C=C/Br)c(F)cc2F)C[C@@H]1O,,E6SM,cytopathic effect,>400 µg/mL
O=c1[nH]c(=O)n([C@H]2C[C@H](O)[C@@H](CO)S2)cc1C1CCCCC1,,E6SM,cytopathic effect,>1200 µM
O=c1ccn(C2CC(O[N+](=O)[O-])C(CO)O2)c(=O)[nH]1,,E6SM,cytopathic effect,>400 µg/mL
O=c1c2ncn(COC(CO)CO)c2nc2[nH]c(-c3ccccc3)cn12,,E6SM,cytopathic effect,>175 µg/mL
OC[C@H]1O[C@@H](c2cncc(Br)c2)[C@@H](O)[C@H]1O,,E6SM,cytopathic effect,≥100 µg/mL
CCc1cn([C@@H]2OC3COP(=O)(O)OC3[C@H]2O)c(=O)nc1N,,,,>400 µg/mL
CN(C)c1nc2c(=O)[nH]c(N)nc2n1COCCO,,PRK,cytopathic effect,>400 µg/mL
O=c1c2ncn(COCCO)c2nc2[nH]c(-c3ccccc3)c(-c3ccc(C(c4ccccc4)c4ccccc4)cc3)n12,,,cytopathic effect,>16 µg/mL
Cc1cn([C@H]2OC[C@@H](CO)C2F)c(=O)[nH]c1=O,,E6SM,cytopathic effect,>80 µg/mL
[N-]=[N+]=N[C@H]1[C@H](O)[C@H](n2cnc3c(N)ncnc32)O[C@@H]1CO,,PRK,cytopathic effect,>200 µg/mL
Nc1ncnc2c1ncn2[C@@H]1C=C(CO)[C@@H](O)[C@H]1O,,HeLa,cytopathic effect,2 µg/mL
NC(=O)c1cncc([C@H]2O[C@H](CO)[C@H](O)[C@@H]2O)c1,,E6SM,cytopathic effect,≥100 µg/mL
O=c1[nH]c(=O)n([C@@H]2OC3COP(=O)(O)OC3[C@H]2O)cc1I,,PRK,cytopathic effect,>400 µg/mL
Cc1cn([C@H]2C[C@H](N=[N+]=[N-])[C@@H](CO)O2)c(=O)[nH]c1=O,,PRK,cytopathic effect,>200 µg/mL
NC(=O)c1cncc([C@@H]2O[C@H](CO)[C@H](O)[C@@H]2O)c1,,E6SM,cytopathic effect,≥100 µg/mL
Nc1nc2ncn(O)c2c(=O)[nH]1,Indiana,BHK,plaque count,27.9 µg/mL
CNc1nc2c(=O)[nH]c(N)nc2n1COCCO,,PRK,cytopathic effect,>400 µg/mL

3 of the rows above, restated:

smiles	strain	cell line	method	value
OC[C@H]1O[C@@H](c2cc(/C=C/Br)c(F)cc2F)C[C@@H]1O		E6SM	cytopathic effect	>400 µg/mL
Nc1nc2c(ncn2[C@H]2OC[C@@H](CO)C2O)c(=O)[nH]1		E6SM	cytopathic effect	>400 µg/mL
[N-]=[N+]=N[C@H]1[C@H](O)[C@H](n2cnc3c(N)ncnc32)O[C@@H]1CO		PRK	cytopathic effect	>200 µg/mL

Neighbouring rows are from separate reports. ECn is the concentration giving n% inhibition of infection, replication or growth.